From patent US20150086555A1 (THERACLONE SCIENCES, published 2015)

Legend:
[1] = biological target: hemagglutinin (HA) of influenza A/Solomon Islands/3/06 (H1N1) on whole virions (Influenza A virus A/Solomon …)
[2] = biological target: T1, hemagglutinin (HA) of influenza A/Wisconsin/67/05 (H3N2) on whole virions (Influenza A virus …); experiment: ELISA; BCC supernatant on coated inactivated whole virions
T1 construct: whole, on cells

Binder	ELISA virus binding (OD450) [1] [OD450]	ELISA virus binding (OD450) [2] [OD450]
TCN-545 (5082_I15) (antibody, V domains shown) VH: QVQLQQWGAGLLKPSETLSLSCAVFGGSFSDYYWTWIRQPPGKGLEWIGEIKHSGRTNYNPSLESRVTISVDTSKNQFSLKLSSVTAADTAIYYCARGTDPDTEGYCRSGSCSAFDFWGQGTLVTVSS VL: EIVLTQSPGTLSLSPGERATLSCRASHFVNYRSLAWYQQTPGQVPRLLIYGASTRATGIPDRFSGSGSGTDFTLTISRLEPEDFAVYFCQQYGGSPRYTFGQGTRLEIK	3.32	0.47
TCN-533 (5256_A17a) (antibody, V domains shown) VH: QVQLVQSGADVKKPGSSVTVSCKASGGSFSNYGINWVRQAPGQGLEWMGGIIPLINAPNYAPKFQGRVTITADMFSNIVSLQLTSLRTDDTAVYYCARRKMTTAIDYWGQGTLVTVSS VL: QPVLTQPPSASASLGASVTLTCTLSSAYSNYKVDWYQQRPGKGPRFVMRVGTGGIVGSKGDGIPDRFSVLGSGLNRYLTIKNIQEEDESDYHCGADHGSGSNFVSPYVFGGGTKLTVL	3.54	0.1
TCN-523 (5248_A17) (antibody, V domains shown) VH: QVQLVQSGAEVKKPGSSVKVSCKASGGSFSNYAFSWVRQAPGQGLEWMGGTIPLLGTTNYAQKFQGRVTISADQFTSTAYMELGSLRSEDTAVYYCTRRKMTTAFDSWGQGTLVTVSS VL: QPVLTQPPSASASLGASVTLTCTLSSAYSNYKVDWYQQRPGKGPRFVMRVGTGGIVGSKGDGIPDRFSVLGSGLNRYLTIKNIQEEDESDYHCGADHGSGSNFVSPYVFGGGTKLTVL	3.47	0.08
TCN-547 (5092_F11) (antibody, V domains shown) VH: QVQLQESGPGLVKPSQTLSLTCTVSGDSISSVDHYWSWIRQHPVKGLEWIGFMYYSASTYYNPSLKSRVTISTDTSKNQFSLRLSSVTAADTAVYYCARGTCAGDCSLHYYYYGLDVWGQGRTVTVSS VL: DIQMTQSPSSLSASVGDRVTITCRASQSISSYLNWYQHKPGKAPKVLMYAVSILQSGVPSRFSGSGSGADFTLTISSLQPEDFATYYCQQSYSSPLTFGGGTKVEIK	0.06	3.68
TCN-538 (3206_O17) (antibody, V domains shown) VH: QITLKESGPTLVKPTQTLTLTCVFSGFSLSITGVRVGWIRQPPGKALEWLALISWDDEKHYSPSLQSRLTITKDTSKNQVVLTMTNLDPVDTATYYCARSTDRGHVLRYFGWMLPGDAFDVWGQGTMVTVSS VL: DIVMTQSPDFLPVSLGERATINCKSSQRVLYSSNNKNYLAWYQLKPGQPPKLIIYWASTRESGVPDRFSGSGSGTEFTLTISSLQAEDVAVYYCQQYYSRPYTFGQGTKLEIK	3.47	0.07
TCN-540 (5060_F05) (antibody, V domains shown) VH: QVQLVQSGGGVVQPGRSLRLSCAASGFTFSSYAMHWVRQAPGKGLEWVAIISYDGNDQYYTDSVKGRFTISRDSSKVYLQMHRLRPEDTAVYYCAKEFETSGYFHGSFDYWGQGILVTVSS VL: QSALTQPASVSGSPGQSITISCTGTSSDVGGYNYVSWYQQHPGKAPKLLIYEVTNWPSGVSNRFSGSKSGNTASLTISGLQAEDEADYYCSSYAGSSTWVFGGGTRVTVL	0.07	3.65
TCN-534 (5249_B02) (antibody, V domains shown) VH: QVQLVQSGAEVKKPGSSVKVSCRESGGTFNGYTITWVRQAPGQGLEWMGGIIPMMGTVNYAQKLQGRVTITTDYFTKTAYMDLNNLRSEDTAMYYCVKIRYTGQQLLWGQGTLVTVSS VL: DIQMTQSPSTLSASIGDRVTITCRASQSIASWLAWYQQKPGKAPKLLIYEAVNLESGVPSRFSGSGSGTDFTLTISSLQPDDFATYFCQHYGTISQTFGGGTKVEIK	3.55	0.07
TCN-542 (5079_A16) (antibody, V domains shown) VH: QVQLQESGPGLVKPSQTLSLTCTVSGGSISSGNYYWNWVRQHPGKGLEWIGYIYYRGSTFYNPSLKSRVTISIDTSKNQFSLRLSSVTAADTAVYYCAKDTRSSLDNYQYGMDVWGQGTTVTVSS VL: QTVVTQEPSLTVSPGGTVTLTCASSTGAVTSSYFPNWFQQKPGQAPRPLIYSTTIRHSWTPARFSGSLLGGKAALTLSGVQPEDEADYYCLLYSGGDPVAFGGGTKLTVL	3.66	3.13
TCN-548 (5092_P01) (antibody, V domains shown) VH: QVQLQESGPGLVKPSETLSLTCTVSSGPMSDYYWSWIRQPPGKGLEWIGHVSVSHGGRTKSNPSVMSRVTISVETSKNQFSLKLTSVTAADTAVYYCARLNYYDRSGYHSPDGPSNNWFDPWGQGTLVTVSS VL: DIVMTQSPDSLAVSLGERATINCKSSQSVLYSSNNKNYLAWYQQKPGQPPKLLIYWASTRESGVPDRISGSGSGADFTLTISSLQAEDVAVYYCQQYFATPRTFGQGTKVEIK	0.09	3.62
TCN-549 (5092_P04) (antibody, V domains shown) VH: QVQLVQSGAEVKKPGASVKVSCKASGYTFTGYYMHWVRQAPGQGLEWMGWINPNSGDTNYAQKFQGRVTMTRDTSITTAYMELSSLRSDDTAVYYCARDSPYSSSWSFFDYWGQGPLVTVSS VL: DIVMTQSPDSLAVSLGERATINCKSSQSVLYSSNNKSHLAWYQQKPGQPPKLLIYWASTRESGVPDRFSGSGSGTDFTLIISSLQAEDVAVYYCQQYYFSPLTFGGGTKVEIK	0.09	3.58
TCN-539 (5056_A08) (antibody, V domains shown) VH: QVQLVESGGGVVQPGRSLRLSCAASEITFITYAMHWVRQAPGKGLEWVALISDDGSNKFYADSVKGRFTISRDNSKNTLYLQMNSLRAEDTAAYYCAREGVYFDSGTYRGYFDYWGQETLVTVSS VL: EIVLTQSPATLSLSPGERATLSCRASQSVSSYLAWYQQKPGQAPRLLIYDASNRATGIPARFSGSGSGTDFTLTISSLEPEDFAVYYCQQRSHWPPITFGQGTRLEIK	0.06	2.85
TCN-522 (3212_I12) (antibody, V domains shown) VH: QVQLQQWGAGLLKPSETLSLTCTVSGGSLTDYSWNWIRQPPGKGLEWIGDTLHNGYTNYNPSLRGRVSISIDTSKNQVSLRLTSVTAADTALYYCARGSGGYGGFDYFGKLRTWDFWGQGTLVTVSS VL: DIQLTQSPSSLSASVGDRVTITCRASQGIRNDLGWYQQKPGNAPKRLIFGASSLQSGVPSRFSGSGSGTEFTLTISSLQPEDFATYYCLQHNSYPYTFGQGTKLEIK	2.12	0.07
TCN-536 (5095_N01) (antibody, V domains shown) VH: QVQLQQWGAGLLKPSETLSLTCAVYGGSFSVSGYYWSWIRQPPGRGLEWIGEISHGGSTNYNPSLKSRVTISVDTTKNQFSLRLSSVTAADTAVYYCARGTDPDTEVYCRVGNCAAFDYWGQGSLVTVSS VL: EIILAQSPGTLSLSPGERATLSCRASQFVSTRSLAWYQQRPGQAPRLLIYGASSRATGIPDRFSGSGSGTDFTLTISRLEPEDFAVYYCQHYGYSPRYAFGQGSKVEIK	3.63	3.66
TCN-544 (5082_A19) (antibody, V domains shown) VH: QVQLQESGPGLVKPSETLSLTCTVSRGSIGHYFWSWIRQPPGKGLEWIGYISYSGSTKYNPSLRSRVTISVDTSKNQFSLNLNSVTATDTALYYCAREDYDILTGAGPGMEVWGQGTTVTVSS VL: QSMLTQPPSASGTPGQRVTISCSGSSSNIGSNTVNWFKHLPGTAPKLLIYRNDLRPSGVPDRFSGSKSGTSASLAISGLQSEDEADYYCATWDDSLNGFYVFGTGTKVTVL	0.32	2.71
TCN-537 (3194_D21) (antibody, V domains shown) VH: QVQLQQWGSGLLKPSETLSLTCAVYGGSFRDDYWTWIRQPPGKGLEWIGEINHSGRTNYNPSLKSRVTISVDTSLKQFSLKVISVTAADTAVYYCARGTSHVSRYFDWLPPTNWFDPWGQGTQVTVSS VL: DIVLTQSPGTLSLSPGERATLSCRASQSVSSSYLAWYQQKPGQAPRLVMYGAATRATGIPDRFSGSGSGPDFTLTISRLEPEDFAMYYCQQYGNSPITFGQGTRLEIK	3.24	0.06
TCN-535 (5246_P19) (antibody, V domains shown) VH: QVQLVQSGSEVKKPGTSVKVSCTASGSVFTNYGISWVRQAPGQGLEWMGGIIPLFGAAKYAQKFQGRVTITADESTKTVYMELSRLTSKDTAIYFCAKAPRVYEYYFDQWGQGTPVTVSS VL: EIVLTQSPGTLSLSPGERATLSCRASQSVSSSQLAWYQQKPGQAPRLIIYGASTRATGIPDRFSGSGSGTDFTLTIGRLEPEDFAVFFCQQYSTSPPTFGQGTKVDFK	3.43	0.08
TCN-546 (5089_L08) (antibody, V domains shown) VH: QVQLQQWGAGLLKPSETLSLTCGVYGGSLSDYYWSWIRQPPGKGLEWIGEINHSGGTNYNPSLKRRVTISVDTSKKQFSLKMNSVTAADTAVYYCARGTDPDTEVYCRAGNCAAFDFWGQGTLVTVSS VL: EIVLTQSPGTLSLSPGERATLSCRASHFVIGRAVAWYQQKPGQAPRLLIYGASSRATGIPDRFSGSGSGTDFTLTISRLETEDFAVFYCQHYGSSPRYAFGQGTKLEIK	1.95	3.69
TCN-532 (5262_H18) (antibody, V domains shown) VH: QVQLQESGPGLVKPSETLSLTCTVSGGSVSSETYYWSWIRQPPGKGLEWIGYIYYIGNTDYRPSLKSRVTISLDTSKNQFSLKLSSVTAADTAVYYCARGAYYDSSGYPAFYIWGQGTMVTVSS VL: QSVLTQPPSVSGAPGQRVTISCTGSSSNIGSDYDVHWYKQLPGTAPKLLIFGNSNRPSGVPDRFSGSKSGTSASLAITGLQAEDEADYYCQSYDSSLSGFHVFGSGTKVTVL	0.06	3.67
